PubChem BioAssay AID1259414 – Drosophila RNAi Screening Center | 2018

Assay: 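Genome-wide screen for host control of endosymbiont load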 (primary screen)
System: Drosophila JW18 cells infected with Wolbachia
Reagent: long dsRNA against Drosophila genes, 0.25 µg dsRNA per well of a 384-well plate
Time to read-out: 5 days
Conditions: cells persistently infected with Wolbachia before knock-down; no added drug
Read-out: 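Automated imaging of bacterial rRNA staining divided by host cell count, reported as plate-normalised robust z-score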
Direction: Wolbachia per cell robust z: higher = more Wolbachia per host cell than the plate typical
Hit rule: 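Active if absolute robust z reaches 1.5 in two or more of three replicates, leaving out multi- or no-target dsRNAs, genes unexpressed in JW18 and A1 wells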
In all, the deposit lists about 24,000 reagents; below is a random part of those that have a named target and a result. Of all reagents, about 1,210 (5%) were called active. 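Inactive calls also include excluded dsRNAs with several or no targets, genes unexpressed in JW18, and well A1, regardless of score.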 Entries without a mark were called inactive. The numbers tell different reagents against one gene apart. A plus sign joins genes that one reagent is predicted to hit.

The first 2 entries as a preview:
| Target gene | reagent no. | Wolbachia per cell robust z, rep 1 | Wolbachia per cell robust z, rep 2 | Wolbachia per cell robust z, rep 3 |
| --- | --- | --- | --- | --- |
| Cp38 (GeneID 31788) | 1 | 0.659 | 0.0438 | 0.497 |
| Dph2 (GeneID 41802) | 1 | 0.25 | 2.06 | -1.77 |

The listing, repeating the preview:
| Target gene | reagent no. | Wolbachia per cell robust z, rep 1 | Wolbachia per cell robust z, rep 2 | Wolbachia per cell robust z, rep 3 |
| --- | --- | --- | --- | --- |
| Cp38 (GeneID 31788) | 1 | 0.659 | 0.0438 | 0.497 |
| Dph2 (GeneID 41802) | 1 | 0.25 | 2.06 | -1.77 |
| Dph2 (GeneID 41802) | 2 | 0.352 | 0.392 | 0.0349 |
| ste24b (GeneID 36907) | 1 | -0.174 | -4.97 | -3.02 |
| ste24b (GeneID 36907) | 2 | 1.49 | 2.66 | 1.53 |
| RpL24-like (GeneID 41372) | 1 | 0.793 | -4.72 | 1.14 |
| TfIIA-L (GeneID 43284) | 1 | 0.69 | 0.674 | -0.791 |
| CG7924 (GeneID 39574) | 1 | -0.731 | 0.151 | -0.167 |
| CG7924 (GeneID 39574) | 2 | -1.04 | -0.614 | -0.396 |
| alpha-Est9 (GeneID 40897) | 1 | 0.26 | 0.346 | -0.804 |
| CG4194 (GeneID 31173) | 1 | 1.23 (active) | -7.76 | -5.67 |
| CtsL2 (GeneID 36531) | 1 | -0.442 | -1.53 | 1 |
| p24-2 + Unc-115b | 1 | 0.0798 | 0.8 | -0.178 |
| BCL7-like (GeneID 31890) | 1 | -2.76 | 0.447 | 0.0817 |
| BCL7-like (GeneID 31890) | 2 | -0.541 | -1.49 | 0.586 |
| CG7744 (GeneID 37239) | 1 | -0.797 | 0.423 | 0.568 |
| sad (GeneID 44858) | 1 | 0.686 | -0.154 | -0.326 |
| sad (GeneID 44858) | 2 | -3.15 | -1.21 | -6.4 |
| CG42661 + Tsp66A + CG42660 | 1 | -2.52 | -1.25 | -7.23 |
| CG13337 (GeneID 36518) | 1 | 0.266 | -0.787 | 0.495 |
| CG13337 (GeneID 36518) | 2 | -3.84 | -1.06 | -0.882 |
| Peritrophin-A (GeneID 33023) | 1 | 1.28 | 0.153 | 1.51 |
| CG11247 (GeneID 40414) | 1 | -0.857 | 0.669 | 0.794 |
| CG11247 (GeneID 40414) | 2 | -2.09 | -0.896 | -0.384 |
| CG11247 (GeneID 40414) | 3 | -0.791 | 0.0563 | -0.0375 |
| Trm7-32 (GeneID 42056) | 1 | -0.662 | 0.948 | -1.55 |
| Cyt-c1 (GeneID 38612) | 1 | 1.26 | 0.881 | -0.384 |
| Cyt-c1 (GeneID 38612) | 2 | -0.719 (active) | -1.71 | -1.82 |
